Pooled drug test results. Numbers come from NIAID ChemDB, via PubChem.

Common to all: whole-cell or culture tests; organism: HIV-1

Two numbers with a dash give a range or band. Blank or dashed fields: not listed here. Lines come from different laboratories, so protocols vary. ECn is the concentration giving n% inhibition of infection, replication or growth.

compound	changes	method	cells	measure	strain or isolate	setting	result
COc1ccc(NC(=S)c2ccoc2C)cc1OCC=C(Cl)Cl	RT-K103N	syncytia	CEM	EC50	TIBO R82913-resistant (RT K103N)	-	1.6 µg/mL
CCN1c2ncc(CCOc3ccc(-c4cc(CC(=O)O)ccc4C)cc3C)cc2C(=O)N(C)c2cccnc21	RT-K103N Y181C	p24	C8166	EC50	-	-	0.01–0.05 µM
CC(C)OC(=O)c1cc(NC(=S)OC(C)C)ccc1Cl	-	syncytia	CEM	EC50	IIIB	-	0.029 µM
CC(C)OC(=S)Nc1ccc(Cl)c(C(=O)O)c1	RT-L100I	syncytia	CEM	EC50	-	-	>36.53 µM
COc1ccnc2[nH]cc(C(=O)C(=O)N3C4CC3CN(C(=O)c3ccccc3)C4)c12	-	luciferase	TZM-bl	EC99	6535	-	>>250 µM
[O-][n+]1onc2ncnc(N3CC[N+]4(CC3)CC[N+]3(CCN(c5ncnc6no[n+]([O-])c56)CC3)CC4)c21	RT-Y181C	cytopathic effect / XTT	MT-4	EC50	Diphenyl sulfone-resistant (RT-Y181C)	-	1.2 µM
CCC(CC)COC(=O)c1cc(NC(=S)OC(C)C)ccc1Cl	RT-E138K	syncytia	CEM	EC50	-	-	1.397 µM
CN1c2ccccc2C2C1C=C(C#N)C(=O)N2c1ccc([N+](=O)[O-])cc1	-	GFP / fluorescence	HeLa	EC50	O-MVP5180	-	0.01 µM
CCOC1(C(F)(F)F)OC(=O)Nc2ccc(Cl)cc21	-	-	-	EC50	-	-	<0.01826 µM
Cc1cc(/C=C/C#N)cc(C)c1Oc1ccnc(S(=O)(=O)CC(=O)NCc2ccc(F)cc2)n1	-	MTT	MT-4	EC50	IIIB	-	1.854 µM
CSc1ccc(NC(=S)OC(C)C)cc1C(=O)OC(C)C	RT-E138K	syncytia	CEM	EC50	-	-	2.229 µM
COCCOC1(C(F)(F)F)OC(=O)Nc2ccc(Cl)cc21	-	-	-	EC50	-	-	<0.06141 µM
CC(C)OC(=O)c1cc(NC(=O)OCC2CC2)ccc1Cl	RT-E138K	syncytia	CEM	EC50	-	-	19.2 µM
O=C1Nc2ccc(F)c(F)c2C(C#Cc2cccnc2)(C(F)(F)F)O1	-	-	-	EC50	-	-	<0.00223 µM
CC(=O)c1c(C)nc(-c2ccccc2)nc1NC(=O)c1ccccc1	-	GFP / fluorescence	MT-4	EC50	B-HXB2	-	0.24 µM
O=C1Nc2ccc(Cl)cc2[C@@](C#CC2CC2)(C(F)(F)F)O1	N348I	luciferase	HEK293T	EC50	MJ4 C	-	7.65 nM
Cc1cc(/C=C/C#N)cc(C)c1Oc1ccnc(S(=O)(=O)CC(=O)Nc2ccc(Cl)cc2)n1	K103N	MTT	MT-4	EC50	IIIB	-	0.007 µM
CC(C)OC(=S)Nc1ccc(Cl)c(C(=O)OCC[Si](C)(C)C)c1	RT-V106A	syncytia	CEM	EC50	-	-	14.71 µM
O=C1Nc2ccc(F)cc2C(C#Cc2ccoc2)(C(F)(F)F)O1	-	-	-	EC50	-	-	<0.00252 µM
CCOC(=O)CCCCCNC(=O)Nc1cccc2c(C(=O)C(=O)N3CCN(C(=O)c4ccccc4)C[C@H]3C)c[nH]c12	-	luciferase / reporter gene	HeLa	EC50	-	-	<1 µM
CO/N=C(\C)COc1cc(NC(=S)OC(C)C)ccc1Cl	RT-Y181C	syncytia	CEM	EC50	-	-	12.09 µM
C=CCO/N=C/c1cc(NC(=S)c2ccoc2C)ccc1Cl	-	syncytia	CEM	EC50	IIIB	-	0.011 µM
CCN1c2ncc(CCOc3ccc(-c4csc(N)n4)cc3C)cc2C(=O)N(C)c2cccnc21	-	p24	C8166	EC50	IIIB	-	<0.01 µM
COc1ccc(-c2c(C)nc3c(N4CC[C@@H](NC(=O)Oc5ccccc5)C4)cc(C)nn23)cc1F	-	p24	H9	EC50	-	-	0.3 µM
COc1ccnc2[nH]cc(C(=O)C(=O)N3C4CCCC3CN(C(=O)c3ccccc3)C4)c12	-	luciferase	TZM-bl	EC50	ZM214	-	0.83 µM
Cc1cc(C#N)cc(C)c1Oc1ccnc(S(=O)(=O)CC(=O)Nc2ccc(C#N)cc2)n1	L100I	MTT	MT-4	EC50	IIIB	-	0.067 µM
CCN1c2ncc(CCOc3ccc(-c4ccc(CC(=O)O)cc4O)cc3C)cc2C(=O)N(C)c2cccnc21	RT-K103N Y181C	p24	C8166	EC50	-	-	>0.05 µM
Cc1cn([C@H]2C=C[C@@H](CO)O2)c(=O)[nH]c1=O	-	cytopathic effect / MTT	MT-4	EC50	RD 02-RT-210W C215Y Recombinant	-	0.7 µM
CC(=O)N[C@@H]1CCN(c2cc(C)nn3c(-c4ccc(OC(F)(F)F)cc4)c(C)nc23)C1	-	p24	H9	EC50	-	-	0.2 µM
CCOC(=O)COc1cc(NC(=S)OC(C)C)ccc1Cl	RT-Y181C	syncytia	CEM	EC50	-	-	23.27 µM
COP(=O)(c1cc(C)cc(CCC#N)c1)c1c(C(N)=O)[nH]c2ccc(Cl)cc12	-	cytopathic effect	MT-4	EC50	BH10	-	0.0002 µM
O=C1Nc2ccc(Cl)cc2C(OCC=C(Cl)Cl)(C(F)(F)F)O1	-	-	-	EC50	-	-	<0.0095 µM
CC(C)OC(=O)Nc1ccc(Cl)c(C(=O)OC(C)C)c1	RT-E138K	syncytia	CEM	EC50	-	-	>33.36 µM
C[C@@H]1CN(C(=O)c2ccccc2)CCN1C(=O)C(=O)c1c[nH]c2c(NC(=O)C(=O)O)cccc12	-	luciferase / reporter gene	HeLa	EC50	-	-	<1 µM
CC(C)=CCOc1cc(NC(=S)c2ccoc2C)ccc1Cl	RT-E138K	syncytia	CEM	EC50	IIIB	-	0.015 µM
CCCCCC(=O)N[C@@H]1CCN(c2cc(C)nn3c(-c4ccc(OC)c(OC)c4)c(C)nc23)C1	-	p24	H9	EC50	-	-	0.4 µM
C#CCOC(=O)c1cc(NC(=S)OC(C)C)ccc1Cl	RT-V106A	syncytia	CEM	EC50	-	-	≥32.07 µM
O=C1Nc2ccc(Cl)cc2[C@@](/C=C/C2CC2)(C(F)(F)F)N1	RT-K103N Y181C	-	-	EC90	-	-	~0.12 µM
Cc1occc1C(=S)Nc1ccc(Cl)c(/C=N/OC(C)(C)C)c1	RT-Y188L	syncytia	CEM	EC50	IIIB	-	>2 µM
C=C(Cl)COc1cc(NC(=S)c2ccoc2C)ccc1Cl	RT-Y181C	syncytia	CEM	EC50	Pyridone-resistant (RT Y181C)	-	1.07 µg/mL
CC(C)OC(=S)Nc1ccc(Cl)c(COC(C)(C)C)c1	RT-V106A	syncytia	CEM	EC50	-	-	≥31.66 µM
CC(C)CCC[C@@H](C)[C@H]1CCC2C3CCC4C[C@@H](O[C@@H]5O[C@H](COS(=O)(=O)[O-])[C@@H](O[C@H]6O[C@H](COS(=O)(=O)[O-])[C@@H](O[C@H]7O[C@H](COS(=O)(=O)[O-])[C@@H](O[C@H]8O[C@H](COS(=O)(=O)[O-])[C@@H](OS(=O)(=O)[O-])[C@H](OS(=O)(=O)[O-])[C@H]8OS(=O)(=O)[O-])[C@H](OS(=O)(=O)[O-])[C@H]7OS(=O)(=O)[O-])[C@H](OS(=O)(=O)[O-])[C@H]6OS(=O)(=O)[O-])[C@H](OS(=O)(=O)[O-])[C@H]5OS(=O)(=O)[O-])CC[C@]4(C)C3CC[C@@]21C	-	p24 / ELISA / antigen	PBMC	EC50	HI05-91 isolate (R5)	-	4 µg/mL
C/C=C\COc1cc(NC(=S)OC(C)C)ccc1Cl	-	syncytia	CEM	EC50	IIIB	-	0.0133 µM
C=C(C)[C@@H]1CC[C@]2(C(=O)NCCCCCCCC(=O)N[C@@H](CC(C)C)[C@@H](O)CC(=O)O)CC[C@]3(C)[C@H](CC[C@@H]4[C@@]5(C)CC[C@H](O)C(C)(C)[C@@H]5CC[C@]43C)[C@@H]12	-	RT activity	CEM + CEM-4	EC50	LAI	-	0.2 µM
C=C(Cl)COc1cc(NC(=S)c2ccsc2C)ccc1C#N	RT-L100I	syncytia	CEM	EC50	TIBO R82150-resistant (RT L100I)	-	0.2 µg/mL
COc1ccc(-c2c(C)nc3c(N4CCN(C(=O)C5CCCCC5)CC4)cc(C)nn23)cc1OC	-	p24	H9	EC50	-	-	2 µM
CCN1c2ncc(CCOc3ccc(-c4ccc(C(=O)O)s4)cc3)cc2C(=O)N(C)c2cccnc21	-	p24	C8166	EC50	IIIB	-	0.01–0.05 µM
Cc1cc(-c2ccc(C#N)cc2)cc(C)c1Oc1ccnc(S(=O)(=O)CC(=O)Nc2ccc(Cl)cc2)n1	-	MTT	MT-4	EC50	IIIB	-	0.034 µM
C/C(Cl)=C/COc1cc(NC(=S)c2ccoc2C)ccc1Cl	-	syncytia	CEM	EC50	IIIB	-	0.003 µg/mL
C=CCSc1cc(NC(=S)OC(C)C)ccc1Cl	RT-V106A	syncytia	CEM	EC50	-	-	1.593 µM
COc1ccc(-c2c(C)nc3c(N4CC[C@@H](NC(C)=O)C4)ccnn23)cc1OC	-	p24	H9	EC50	-	-	>1 µM
CC(C)OC(=S)Nc1ccc(Cl)c(C(=O)OC(C)(C)C)c1	-	syncytia	CEM	EC50	IIIB	-	0.121 µM
CC(=O)N[C@@H]1CCN(c2cc(Cl)nn3cc(C)nc23)C1	-	p24	H9	EC50	-	-	>100 µM
CCCSC(=Nc1ccc(Cl)c(C(=O)OC(C)C)c1)OC(C)C	RT-E138K	syncytia	CEM	EC50	-	-	23.62 µM
Cc1cc(-c2ccc(C#N)cc2)cc(C)c1Oc1ccnc(S(=O)(=O)CC(=O)NCc2ccc(Cl)cc2)n1	-	MTT	MT-4	EC50	IIIB	-	>3.86 µM
O=C1Nc2ccc(F)c(F)c2[C@@](C#CC2CC2)(C(F)(F)F)N1	RT-Y188L	-	-	EC90	-	-	~0.075 µM
COc1ccnc2[nH]cc(C(=O)C(=O)N3CCN(C(=O)c4ccccc4)C[C@H]3C)c12	GP120-V68A	RT activity	MT-2	EC50	LAI(GP120-V68A) Recombinant	-	<0.015 µM
CC[C@H](C)OC(=S)Nc1ccc(Cl)c(C(=O)OC(C)C)c1	RT-L100I	syncytia	CEM	EC50	-	-	2.122 µM
C[C@@H]1CN(C(=O)c2ccccc2)CCN1C(=O)C(=O)c1c[nH]c2c(NC(=O)Nc3cccc(C(=O)O)c3)cccc12	-	luciferase / reporter gene	HeLa	EC50	-	-	<1 µM
COc1ccc(NC(=S)OC(C)C)cc1CC(=O)OC(C)C	-	syncytia	CEM	EC50	IIIB	-	0.025 µM
Cc1cc(-c2ccc(C#N)cc2)cc(C)c1Oc1ccnc(S(=O)(=O)C(C)C(=O)Nc2ccc(C#N)cc2)n1	-	MTT	MT-4	EC50	IIIB	-	0.009 µM
CC(C)OC(=O)c1cc(NC(=S)OC(C)C)ccc1Cl	RT-V179D	syncytia	CEM	EC50	IIIB	-	0.33 µM
CC(C)OC(=S)Nc1ccc(Cl)c(C(=O)OC(C(C)C)C(C)C)c1	RT-L100I	syncytia	CEM	EC50	-	-	>2.689 µM
Cc1cc(-c2ccc(C#N)cc2)cc(C)c1Oc1ccnc(S(=O)(=O)CC(=O)Nc2ccc(F)cc2)n1	Y188L	MTT	MT-4	EC50	IIIB	-	1.981 µM
Cc1ccc(-c2ccc(NC(=O)N3CCC4(CCO4)CC3)cc2)cc1	-	luminescence	TZM-bl	EC50	CE1176	pseudotyped	>30 µM
Cc1cc(-c2ccc(C#N)cc2)cc(C)c1Oc1ccnc(S(=O)(=O)C(C)C(=O)NCc2ccc(Br)cc2)n1	-	MTT	MT-4	EC50	IIIB	-	>4.77 µM
CCOC(=O)CNC(=O)Nc1cccc2c(C(=O)C(=O)N3CCN(C(=O)c4ccccc4)C[C@H]3C)c[nH]c12	-	luciferase / reporter gene	HeLa	EC50	-	-	<1 µM

For reference, 6 entries again:

compound | changes | method | cells | measure | strain or isolate | setting | result
O=C1Nc2ccc(Cl)cc2[C@@](C#CC2CC2)(C(F)(F)F)O1 | N348I | luciferase | HEK293T | EC50 | MJ4 C | - | 7.65 nM
CC(C)OC(=S)Nc1ccc(Cl)c(C(=O)OC(C)(C)C)c1 | - | syncytia | CEM | EC50 | IIIB | - | 0.121 µM
C/C(Cl)=C/COc1cc(NC(=S)c2ccoc2C)ccc1Cl | - | syncytia | CEM | EC50 | IIIB | - | 0.003 µg/mL
Cc1cc(/C=C/C#N)cc(C)c1Oc1ccnc(S(=O)(=O)CC(=O)Nc2ccc(Cl)cc2)n1 | K103N | MTT | MT-4 | EC50 | IIIB | - | 0.007 µM
CC(C)OC(=S)Nc1ccc(Cl)c(COC(C)(C)C)c1 | RT-V106A | syncytia | CEM | EC50 | - | - | ≥31.66 µM
CC(C)OC(=O)c1cc(NC(=S)OC(C)C)ccc1Cl | - | syncytia | CEM | EC50 | IIIB | - | 0.029 µM